Test results published in paper PMC11022072 (2024).

B1: bovine lactoferrin (Lf) (natural protein)
chain: APRKNVRWCTISQPEWFKCRRWQWRMKKLGAPSITCVRRAFALECIRAIAEKKADAVTLDGGMVFEAGRDPYKLRPVAAEIYGTKESPQTHYYAVAVVKKGSNFQLDQLQGRKSCHTGLGRSAGWIIPMGILRPYLSWTESLEPLQGAVAKFFSASCVPCIDRQAYPNLCQLCKGEGENQCACSSREPYFGYSGAFKCLQDGAGDVAFVKETTVFENLPEKADRDQYELLCLNNSRAPVDAFKECHLAQVPSHAVVARSVDGKEDLIWKLLSKAQEKFGKNKSRSFQLFGSPPGQRDLLFKDSALGFLRIPSKVDSALYLGSRYLTTLKNLRETAEEVKARYTRVVWCAVGPEEQKKCQQWSQQSGQNVTCATASTTDDCIVLVLKGEADALNLDGGYIYTAGKCGLVPVLAENRKSSKHSSLDCVLRPTEGYLAVAVVKKANEGLTWNSLKDKKSCHTAVDRTAGWNIPMGLIVNQTGSCAFDEFFSQSCAPGADPKSRLCALCAGDDQGLDKCVPNSKEKYYGYTGAFRCLAEDVGDVAFVKNDTVWENTNGESTADWAKNLNREDFRLLCLDGTRKPVTEAQSCHLAVAPNHAVVSRSDRAAHVKQVLLHQQALFGKNGKNCPDKFCLFKSETKNLLFNDNTECLAKLGGRPTYEEYLGTEYVTAIANLKKCSTSPLLEACAFLTR

Assays:
[1] = biological target: m7 (biotin on the biotin-acceptor peptide (biotinylated in vivo)); test: BLI; holo-Lf
[2] = biological target: B1; test: BLI; holo-Lf

Row | Binder | Kd [1] | Kd [2]
1 | B1 | 205 nM | –
2 | N-lobe of M. bovis LbpB in the His-BAP-MBP vector (BLI construct) (domain or fragment, biotin on the biotin-acceptor peptide (biotinylated in vivo)) CGGGSFNNPSTIVIGQSKMIEKSDQSKDASAAKDDDNANADTKNKADSRLTMPVLGSVLAIPKRNQAYDKKKLTHLEEHVPLDENNITTAHTNPLPALTKELQERYEGGKIYQSDDKYKFVKAGWIFTGLRPDETIKTDEDTDQPKQYTKGDGYLYYYGDNPTTGLAKGVANYTGHWDFVTDVKRERESTITETTGRQAFGGGSGYKMDSGFGDEVGATSFAEQVFGQYAPRQGNHRAVFKADFDAKKLTGTLSTKQKAIASSPETYVDRYDIDATIKGNRFAGSAIAKNTKSSFLEPNFFNKNADNRLEGGFYGENAEELAGKFLTNDNSVFAVFAGKQD | – | 980 nM
